Data set [1] relates to bloodstream forms of Trypanosoma brucei. The data set can be described thus: Resazurin cell viability assay, EC50 determinations against T. brucei. The format is cell-based, T. b. brucei (strain 427). As to conditions: for Activity against T. brucei (in words): opioid receptor ligands.
For a further data set, the system named is MRC5 cells. The data set can be described thus: Resazurin cell viability counter-screen, EC50 determinations against mammalian cells. It is filed as cell-based. As to conditions: fold-specificity for T. brucei over human fibroblasts (MRC5). (Alamar Blue is a resazurin reagent that responds to reducing activity.)
The nature of data set [2]: Brain penetration after intravenous dosing. As to conditions: 2 mg kg−1 intravenous, 5 min post-dose.
The test system of data set [3] is T. b. brucei (strain 427). The data set can be described thus: Efficacy study in mice infected with T. b. brucei. To be noted: 150 mg kg−1 orally every 4 h for 32 h, from 3 days after infection.
The nature of data set [4]: Oral exposure (blood pharmacokinetics) and tolerability in uninfected mice.
For a further data set, the system named is T. brucei. The data set can be described thus: Effect on T. brucei culture growth by direct cell counting (haemocytometer).
Where [5] appears, read: read-out: EC50 of opioid receptor ligands against T. brucei, purchased samples, weighted mean of 3 determinations, norbinaltorphimine max 50 μM due to solubility.
Where [6] appears, read: read-out: EC50 vs. T. brucei, LOPAC hits (library screening), 3 days incubation, mean of 3 determinations weighted to standard error.

Where two headings read alike, the source gives them in different places.

What is called EC50 is the concentration at which the effect is half-maximal.

For the molecule `CN(C(=O)Cc1ccc(Cl)c(Cl)c1)[C@H]1CCCC[C@@H]1N1CCCC1`, the EC50 in data set [1] (setting [5]) stood at 4110 nM.

`Oc1ccc2c3c1O[C@H]1c4[nH]c5c(c4C[C@@]4(O)[C@@H](C2)N(CC2CC2)CC[C@]314)C[C@@]1(O)[C@H]2Cc3ccc(O)c4c3[C@@]1(CCN2CC1CC1)[C@H]5O4`: the “Activity against T. brucei (in words)” value in data set [1] is given as “complete lack of activity”. Besides, in data set [1] (setting [5]), the EC50 was greater than 50000 nM.

Take (±) trans-U-50488 methanesulfonate: the 50% effective concentration (EC50) in data set [1] (setting [6]) was found to be 113 nM.

For `CN(C(=O)Cc1ccc(Cl)c(Cl)c1)[C@H](CN1CCCC1)c1cccc(N=C=S)c1`, in data set [1] (setting [5]), the concentration giving a half-maximal response (EC50) amounted to 4580 nM.

For `CN(C(=O)Cc1ccc(Cl)c(Cl)c1)[C@@H]1CCCC[C@H]1N1CCCC1`, in data set [1] (T. brucei growth inhibition), the “EC99 (calculated/predicted from EC50 and Hill slope)” value is on record as 740 nM. In addition, the “Potency against T. brucei relative to (−)-U50,488” value in data set [1] (ratio of EC50 values) came out at 70 times. In addition, the EC50 in data set [1] (read-out: EC50 against T. brucei, authentic (+)-U50,488 sample, purchased authentic sample, mean weighted to standard error) came to 58.9 nM; in data set [1] (setting [6]), 59 nM; in data set [1] (read-out: EC50 vs. T. brucei, LOPAC hits (library screening), 3 days incubation, mean of 3 determinations weighted to standard error, listed as (+)-trans-(1R,2R)-U50,488) it was 60 nM. The Selectivity in the data set on MRC5 cells was determined as 270. For the same molecule, the “Brain to blood ratio” value in data set [2] is given as 8.2. For the same molecule, in data set [3], the “Efficacy in infected mice” value is “not curative”. For the same molecule, the Tolerability result in data set [4] (150 mg kg−1, oral route, uninfected mice) is “well tolerated”. Further, the Half-life in data set [4] (free blood concentration, single oral dose 150 mg kg−1) is 2.6 ± 0.04 h. In addition, the “Peak free blood concentration” value in data set [4] (single oral dose 150 mg kg−1) came out at 800 ng/mL. The “Time of peak free blood concentration after dosing” value in data set [4] (single oral dose 150 mg kg−1) was 1 h. Besides, the “Effect on T. brucei culture growth” value was “cytocidal effect” with T. brucei (30 μM, 500 times EC50) and “cytostatic” in the data set with T. brucei (100 times the EC50).

`CN(C(=O)Cc1ccccc1)C1CCC2(CCCO2)CC1N1CCCC1` (stereo not drawn): in data set [1], the “Activity against T. brucei (in words)” value was “inactive”. Further, the EC50 in data set [1] (setting [5]) is greater than 100000 nM.

The values above are taken from article PMC3025325, “Identification of a κ-opioid agonist as a potent and selective lead for drug development against human African trypanosomiasis” (Biochemical Pharmacology, 2010).
